Reference: US7964624B1, “Inhibitors of serine proteases” (priority 2005, dated 2011)
Like-named read-outs stand apart in the source and are kept apart here.

Sequences of proteins named here, by UniProt entry; tags and fusion partners are left off. A line that says so, or that is headed by a name, gives the form on record, which may keep a tag or linker. Residues count along the entry.
UniProt P27958, 1658-1711 partner limits assumed: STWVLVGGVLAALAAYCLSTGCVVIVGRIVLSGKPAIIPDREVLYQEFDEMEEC
UniProt P27958, 1027-1711 with tags or gaps with the stated changes: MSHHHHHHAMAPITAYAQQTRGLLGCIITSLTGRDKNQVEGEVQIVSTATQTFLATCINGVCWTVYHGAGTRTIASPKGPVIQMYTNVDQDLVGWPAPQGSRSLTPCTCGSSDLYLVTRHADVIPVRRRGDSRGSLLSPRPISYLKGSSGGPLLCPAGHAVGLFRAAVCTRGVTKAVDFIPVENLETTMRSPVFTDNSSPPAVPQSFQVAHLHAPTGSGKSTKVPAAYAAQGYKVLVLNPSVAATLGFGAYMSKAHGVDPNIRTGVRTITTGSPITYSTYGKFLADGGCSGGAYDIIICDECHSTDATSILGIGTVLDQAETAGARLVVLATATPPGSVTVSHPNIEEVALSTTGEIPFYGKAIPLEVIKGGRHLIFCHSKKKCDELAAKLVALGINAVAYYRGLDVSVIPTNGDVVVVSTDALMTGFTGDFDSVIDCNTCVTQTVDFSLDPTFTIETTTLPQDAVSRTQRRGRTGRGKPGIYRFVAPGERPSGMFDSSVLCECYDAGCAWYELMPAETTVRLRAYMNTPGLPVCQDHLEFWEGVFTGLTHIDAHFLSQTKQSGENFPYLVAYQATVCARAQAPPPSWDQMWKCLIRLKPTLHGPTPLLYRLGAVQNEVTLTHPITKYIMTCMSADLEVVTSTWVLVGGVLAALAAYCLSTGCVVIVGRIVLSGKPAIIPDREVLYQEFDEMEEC

Target: full-length hepatitis C viral protein NS3•4A (Hepatitis C virus genotype 1a, UniProt P27958)
Test: HCV NS3 Peptide Cleavage Assay (Enzyme Assay 2), apparent Ki
Source text: Using standard recombinant DNA techniques, a cDNA fragment encoding the sequence for NS3 and NS4A, residues Ala1027 to Cys1711 from the HCV sub-type strain 1a, containing an N-terminal hexa-histidine sequence, was cloned into the baculoviral transfer vector pVL1392 (Webb N R and Summers M D (1990) Expression of proteins using recombinant baculoviruses, Techniques 2:173-188). […] The transfected insect cells containing recombinant baculovirus clones were subsequently isolated by plaque purification. High-titer clonal baculovirus was routinely used to infect SD insect cells for protein production. In production, Sf9 cells were grown at 27° C. until they reached a density of 2.0×10^6 cells/ml. At this point, the insect cells were infected with virus. After 72 hours or when the cell viability was between 70-80% the culture was harvested and the cells were ready for purification. The NS3•4A protein (SEQ ID NO:1) was purified as follows. Cell paste was thawed in at least five volumes of Lysis Buffer (50 mM Na2HPO4 pH 8.0, 10% Glycerol, 300 mM NaCl, 5 mM β-mercaptoethanol, 0.2 mM PMSF, 2.5 μg/ml Leupeptin, 1.0 μg/mlE64, 2.0 μg/ml Pepstatin) per gram of cell paste. The cell paste was then homogenized on ice using a Dounce homogenizer. The cells were next mechanically disrupted by passing once through a microfluidizer (Microfluidics Corporation, Newton, Mass.), and the cell lysate was collected on ice. The cell lysates was centrifuged at 100,000×g for 30 minutes at 4° C. and the supernatants were decanted. Optionally, the pellets were resuspended in wash buffer (Lysis Buffer+0.1% β-octyl glucopyranoside), homogenized using a Dounce homogenizer and centrifuged at 100,000×g for 30 minutes at 4° C. Insoluble NS3° 4A was extracted from the pellets by resuspending in Extraction Buffer (Lysis Buffer+0.5% lauryl maltoside) using 2.5 ml/g cell paste. The mixture was homogenized using a Dounce homogenizer and mixed at 4° C. for three hours or more. The mixture was centrifuged at 100,000×g for 30 minutes at 4° C. The supernatants were decanted and pooled. The NS3•4A protein was further purified using Nickel-NTA metal affinity chromatography. Imidazole from a 2 M stock, pH 8.0, solution was added to the pooled supernatants so that the final concentration of imidazole was 10 mM. The supernatants were incubated batchwise overnight at 4° C. with Nickel-NTA affinity resin that had been pre-equilibrated with Lysis Buffer+10 mM imidazole. 1 ml of resin per 5 μg of expected NS3-4A was used. The resin was next settled by gravity or by centrifugation at 500×g for five minutes. The resin was next poured into a gravity flow column and washed with 10 or more column volumes of Nickel Wash Buffer (Lysis Buffer+0.1% lauryl maltoside+10 mM imidazole). The column was next eluted with three to four column volumes of Nickel Elution Buffer (Nickel Wash Buffer+300 mM imidazole). The elution fractions were collected on ice and evaluated using SDS-PAGE. To prevent NS3-4A proteolysis, 100 μM DFP protease inhibitor was added to gel samples before adding SDS sample buffer and boiling. The peak fractions were pooled and protein concentration was determined by measuring absorbance at 280 ηm and by dividing by the extinction coefficient (e), which for NS3•4A is 1.01. The NS3•4A was purified further using gel filtration chromatography. A Superdex 200 26/60 column was equilibrated with Superdex Buffer (20 mM HEPES pH 8.0, 10% glycerol, 300 mM NaCl, 10 mM β-mercaptoethanol, 0.05% lauryl maltoside) at a rate of 3 ml/min. The nickel purified NS3•4A was concentrated in a Centriprep 30 to greater than 2 mg/ml, if necessary, and was filtered through a 0.2 μm syringe filter and up to 10 ml was loaded onto the Superdex 200 column. After 0.3 column volumes passed through, 4-5 ml fractions were collected. Fractions were evaluated by SDS-PAGE. NS3•4A protein elutes in two peaks. Peak 1 contains aggregated NS3•4A and peak 2 contains active protein. The fractions of peak 2 were pooled, aliquoted and frozen at −70° C. […]

[1] = read-out: Enzyme Assay 2 (HCV NS3 Peptide Cleavage Assay) activity, apparent Ki class
[2] = read-out: Enzyme Assay 2, HCV NS3 Peptide Cleavage Assay, apparent Ki

Row | SMILES | Ki [1] [nM] | Ki [2] [nM]
1 | COc1c(C)cc(C2=NO[C@]3(C2)C[C@@H](C(=O)N[C@H](CC2CC2)C(=O)C(=O)NC2CC2)N(C(=O)[C@@H](NC(=O)OC2CCCC2)C(C)(C)C)C3)cc1C | 100 to 500 | 
2 | CNC(=O)C(=O)[C@H](CC1CC1)NC(=O)[C@@H]1C[C@]2(CC(c3cccc(Cl)c3)=NO2)CN1C(=O)[C@@H](NC(=O)[C@@H]1C[C@H]1CC(C)C)C(C)(C)C |  | < 100
3 | CCC[C@H](NC(=O)[C@@H]1C[C@]2(CC(c3cccc(Cl)c3)=NO2)CN1C(=O)[C@@H](NC(=O)CC1CCCCC1)C(C)(C)OC)C(=O)C(=O)NC1CC1 |  | < 100
4 | CNC(=O)C(=O)C(CC1CC1)NC(=O)C1CC2(CC(c3cccc(Cl)c3)=NO2)CN1C(=O)C(NC(=O)C1CC1c1ccccc1F)C(C)(C)C (centres unmarked) |  | < 100
5 | COc1c(C)cc(C2=NO[C@]3(C2)C[C@@H](C(=O)N[C@@H](CC2CC2)C(=O)C(N)=O)N(C(=O)[C@@H](NC(=O)OC(C)(C)C)C(C)(C)C)C3)cc1C | < 100 | 
6 | CCC[C@H](NC(=O)[C@@H]1C[C@]2(CC(c3cccc(Cl)c3)=NO2)CN1C(=O)[C@@H](NC(=O)CC1CCCCCC1)C(C)(C)C)C(=O)C(=O)NC | < 100 | 
7 | CCOc1ccc(Cl)cc1C1=NO[C@]2(C1)C[C@@H](C(=O)N[C@@H](CC1CC1)C(=O)C(=O)NC)N(C(=O)[C@@H](NC(=O)CC1CCCCC1)C(C)(C)C)C2 |  | < 100
8 | CCC[C@H](NC(=O)[C@@H]1C[C@]2(CC(c3cccc(Cl)c3)=NO2)CN1C(=O)[C@@H](NC(=O)CC(C)(C)OC)C(C)(C)C)C(=O)C(N)=O | < 100 | 
9 | CCC[C@H](NC(=O)[C@@H]1C[C@]2(CC(c3cc(Cl)c(OCC)cc3OC)=NO2)CN1C(=O)[C@@H](NC(=O)OC(C)(C)C)C(C)(C)C)C(=O)C(=O)NC |  | 100 to 500
10 | CCNC(=O)C(=O)[C@H](CC1CC1)NC(=O)[C@@H]1C[C@]2(CC(c3cc(C)c(OCC)c(C)c3)=NO2)CN1C(=O)[C@@H](NC(=O)[C@@H]1C[C@H]1c1ccccc1)C(C)(C)C |  | < 100
11 | CNC(=O)C(=O)[C@H](CC1CC1)NC(=O)[C@@H]1C[C@]2(CC(c3cccc(Cl)c3)=NO2)CN1C(=O)[C@@H](NC(=O)[C@@H]1C[C@H]1c1cccc(OC)c1)C(C)(C)C |  | < 100
12 | CCC[C@H](NC(=O)[C@@H]1C[C@]2(CC(c3cccc(Cl)c3)=NO2)CN1C(=O)[C@@H](NC(=O)[C@@H]1C[C@H]1CC)C(C)(C)C)C(=O)C(=O)NC1CC1 |  | < 100
13 | COc1c(C)cc(C2=NO[C@]3(C2)C[C@@H](C(=O)N[C@@H](CC2CC2)C(=O)C(=O)NC2CC2)N(C(=O)[C@@H](NC(=O)OC2CCCC2)C(C)(C)C)C3)cc1C | < 100 | 
14 | CNC(=O)C(=O)[C@H](CC1CC1)NC(=O)[C@@H]1C[C@]2(CC(c3cc(C)c(OC)c(C)c3)=NO2)CN1C(=O)[C@@H](NC(=O)[C@@H]1C[C@H]1c1c[nH]cn1)C(C)(C)C |  | 100 to 500
15 | CCC[C@H](NC(=O)[C@@H]1C[C@]2(CC(c3cc(C)c(OC)cc3OC)=NO2)CN1C(=O)[C@@H](NC(=O)OC1CCCC1)C(C)(C)C)C(=O)C(=O)NC |  | < 100
16 | CCC[C@H](NC(=O)[C@@H]1C[C@]2(CC(c3cc(C)c(OC)c(C)c3)=NO2)CN1C(=O)[C@@H](NC(=O)OC1CCCC1)C(C)(C)OC)C(=O)C(=O)NC1CC1 | < 100 | 
17 | CNC(=O)C(=O)[C@H](CC1CC1)NC(=O)[C@@H]1C[C@]2(CC(c3cccc(Cl)c3)=NO2)CN1C(=O)[C@@H](NC(=O)[C@@H]1C[C@H]1c1cccs1)C(C)(C)C | < 100 | 
18 | CCOc1c(C)cc(C2=NO[C@]3(C2)C[C@@H](C(=O)N[C@@H](CC2CC2)C(=O)C(=O)NC)N(C(=O)[C@@H](NC(=O)OC(C)(C)C)C(C)(C)C)C3)cc1Cl |  | < 100
19 | CNC(=O)C(=O)[C@@H](CC1CC1)NC(=O)[C@@H]1C[C@]2(CC(c3cccc(Cl)c3)=NO2)CN1C(=O)[C@@H](NC(=O)CC1CCCCC1)C(C)(C)C | > 500 | 

Row | SMILES | Ki [1] [nM] | Ki [2] [nM]
20 | CCC[C@H](NC(=O)C1C[C@]2(CC(c3cccc(Cl)c3)=NO2)CN1C(=O)[C@@H](NC(=O)C1C[C@@H]1F)C(C)(C)C)C(=O)C(=O)NC1CC1 (some centres unmarked) |  | < 100
21 | CCOc1c(C)cc(C2=NO[C@]3(C2)C[C@@H](C(=O)N[C@@H](CC2CC2)C(=O)C(=O)NC)N(C(=O)[C@@H](NC(=O)OC(C)(C)C)C(C)(C)C)C3)cc1C |  | < 100
22 | COc1cc(OC)c(C2=NO[C@]3(C2)C[C@@H](C(=O)N[C@@H](CC2CC2)C(=O)C(=O)NC2CC2)N(C(=O)[C@@H](NC(=O)OC2CCCC2)C(C)(C)C)C3)cc1Cl | < 100 | 
23 | COc1cc(OC)c(C2=NO[C@]3(C2)C[C@@H](C(=O)N[C@@H](CC2CC2)C(=O)C(N)=O)N(C(=O)[C@@H](NC(=O)[C@@H]2C[C@H]2c2ccccc2)C(C)(C)C)C3)cc1C |  | < 100
24 | CCC[C@H](NC(=O)[C@@H]1C[C@]2(CC(c3cccc(Cl)c3)=NO2)CN1C(=O)[C@@H](NC(=O)OC1CCCCC1)C(C)(C)C)C(=O)C(=O)NC1CC1 | < 100 | 
25 | COc1cc(OC)c(C2=NO[C@]3(C2)C[C@@H](C(=O)N[C@@H](CC2CC2)C(=O)C(N)=O)N(C(=O)[C@@H](NC(=O)[C@H]2C[C@@H]2c2ccccc2)C(C)(C)C)C3)cc1Cl | < 100 | 
26 | CCC[C@H](NC(=O)[C@@H]1C[C@]2(CC(c3cc(Cl)c(OCC)cc3OC)=NO2)CN1C(=O)[C@@H](NC(=O)CC1CCCCC1)C(C)(C)C)C(=O)C(=O)NC |  | < 100
27 | CNC(=O)C(=O)[C@H](CC1CC1)NC(=O)[C@@H]1C[C@]2(CC(c3cccc4cccnc34)=NO2)CN1C(=O)[C@@H](NC(=O)[C@@H]1C[C@H]1c1ccccc1)C(C)(C)C |  | < 100
28 | CCNC(=O)C(=O)[C@H](CC1CC1)NC(=O)[C@@H]1C[C@]2(CC(c3cc(C)c(OC)cc3OC)=NO2)CN1C(=O)[C@@H](NC(=O)OC1CCCC1)C(C)(C)C |  | < 100
29 | CNC(=O)C(=O)[C@H](CC1CC1)NC(=O)[C@@H]1C[C@]2(CC(c3cc(Cl)c(OC)cc3OC)=NO2)CN1C(=O)[C@@H](NC(=O)[C@H]1C[C@@H]1c1ccccc1)C(C)(C)C | < 100 | 
30 | CCC[C@H](NC(=O)[C@@H]1C[C@]2(CC(c3cc(C)c(OCC)c(Cl)c3)=NO2)CN1C(=O)[C@@H](NC(=O)CC1CCCCC1)C(C)(C)C)C(=O)C(=O)NC |  | 100 to 500
31 | CNC(=O)C(=O)[C@H](CC1CC1)NC(=O)[C@@H]1C[C@]2(CC(c3cccc(Cl)c3)=NO2)CN1C(=O)[C@@H](NC(=O)[C@@H]1C[C@H]1c1ccco1)C(C)(C)C |  | < 100
32 | CNC(=O)C(=O)[C@H](CC1CC1)NC(=O)[C@@H]1C[C@]2(CC(c3cc(C)c(OC)cc3OC)=NO2)CN1C(=O)[C@@H](NC(=O)CC1CCCCC1)C(C)(C)C |  | < 100
33 | CCC[C@H](NC(=O)[C@@H]1C[C@]2(CC(c3cc(C)c(OCC)c(Cl)c3)=NO2)CN1C(=O)[C@@H](NC(=O)OC(C)(C)C)C(C)(C)C)C(=O)C(=O)NC1CC1 | < 100 | 
34 | CCC[C@H](NC(=O)[C@@H]1C[C@]2(CC(c3cncnc3)=NO2)CN1C(=O)[C@@H](NC(=O)CC1CCCCC1)C(C)(C)C)C(=O)C(=O)NC1CC1 |  | > 500
35 | CNC(=O)C(=O)[C@H](CC1CC1)NC(=O)[C@@H]1C[C@]2(CC(c3cc(C)c(OC)cc3OC)=NO2)CN1C(=O)[C@@H](NC(=O)OC1CCCC1)C(C)(C)C |  | < 100
36 | COc1ccc(Cl)cc1C1=NO[C@]2(C1)C[C@@H](C(=O)N[C@@H](CC1CC1)C(=O)C(N)=O)N(C(=O)[C@@H](NC(=O)[C@H]1C[C@@H]1c1ccccc1)C(C)(C)C)C2 |  | < 100
37 | CCC[C@H](NC(=O)[C@@H]1C[C@]2(CC(c3cc(Cl)ccc3OC)=NO2)CN1C(=O)[C@@H](NC(=O)OC(C)(C)C)C(C)(C)C)C(=O)C(=O)NC1CC1 | < 100 | 
38 | CNC(=O)C(=O)[C@H](CC1CC1)NC(=O)[C@@H]1C[C@]2(CC(c3cccc(Cl)c3)=NO2)CN1C(=O)[C@@H](NC(=O)[C@H]1C[C@H]1C)C(C)(C)C | < 100 | 
